# Measurements from article PMC9119080 (European journal of medicinal chemistry, 2021).
SMILES,SI ROD (CC50/EC50) (HIV-2 (ROD)),SI IIIB (CC50/EC50) (HIV-1 (IIIB)),action stage in HIV-1 life cycle (HIV-1),late-stage effect (HIV-1)
"CN(C(=O)[C@H](Cc1ccccc1)NC(=O)c1cccc(C(=O)Nc2ccc(C(F)(F)F)cc2)c1)c1ccc2scnc2c1 [7i, (S)–N1-(1-(benzo[d]thiazol-5-yl(methyl)amino)-1-oxo-3-phenylpropan-2-yl)-N3-(4-(trifluoromethyl)phenyl)isophthalamide]",<1,≤2.23,,
"CN(C(=O)[C@H](Cc1ccccc1)NC(=O)c1cccc(C(=O)Nc2ccc(NC(=O)OC(C)(C)C)cc2)c1)c1ccc2scnc2c1 [7r, tert-butyl(S)-(4-(3-((1-(benzo[d]thiazol-5-yl(methyl)amino)-1-oxo-3-phenylpropan −2-yl)carbamoyl)benzamido)phenyl) carbamate]",<1,<1,,
"CN(C(=O)[C@H](Cc1ccccc1)NC(=O)c1cccc(C(=O)Nc2cccc(NC(=O)OC(C)(C)C)c2)c1)c1ccc2scnc2c1 [7s, tert-butyl(S)-(3-(3-((1-(benzo[d]thiazol-5-yl(methyl)amino)-1-oxo-3-phenylpropan-2-yl)carbamoyl)benzamido)phenyl) carbamate]",>6.81,,,
"CN(C(=O)[C@H](Cc1ccccc1)NC(=O)c1cccc(C(=O)Nc2ccccc2NC(=O)OC(C)(C)C)c1)c1ccc2scnc2c1 [7t, tert-butyl(S)-(2-(3-((1-(benzo[d]thiazol-5-yl(methyl)amino)-1-oxo-3-phenylpropan-2-yl)carbamoyl)benzamido)phenyl) carbamate]",>78.26,>1.39,,
"CN(C(=O)[C@H](Cc1ccccc1)NC(=O)c1cccc(C(=O)Nc2ccc(N)cc2)c1)c1ccc2scnc2c1 [7u, (S)eN1-(4-aminophenyl)-N3-(1-(benzo[d]thiazol-5-yl(methyl)amino)-1-oxo-3-phenylpropan-2-yl)isophthalamide]",,,function at both the early and late stages,
"Cc1[nH]c2ccccc2c1CC(=O)N[C@@H](Cc1ccccc1)C(=O)N(C)c1ccccc1 [PF74, reference compound]",,,,no late-stage effect
